Compound potency records, mixed from different reports. Data source: NIAID ChemDB in PubChem.

All rows: growth or infection tests; species: HIV-1; read by: p24; measure: EC50

a–b is a range or a potency band. ECn is the concentration giving n% inhibition of infection, replication or growth. Rows are shuffled and stem from different studies. An empty or dashed field is not shown.

smiles	strain or isolate	cells	changes	result
CCN1c2ncc(CCOc3ccc(C(=O)O)c4c3CCN(C(=O)OC)C4)cc2C(=O)N(C)c2cccnc21	WT	C8166		<0.1 µM
CC(C)CC(NS(=O)(=O)c1ccccc1)C(F)(F)C(=O)[C@H](Cc1ccccc1)NC(=O)O[C@H]1CCOC1	IIIB	CEM		<1 µM
CC1NCCn2c1nc(C(=O)NCc1ccc(F)cc1)c(O)c2=O		MT-4		<50 µM
COc1ccc(S(=O)(=O)N(CC(C)C)CC(O)CCN2CSCC2C(=O)NC(C)(C)C)cc1	IIIB	CEM		<1 µM
Cc1ccc(-c2ccc3c(c2)C=C(C(=O)Nc2ccc(C[N+](C)(C)C4CCOCC4)cc2)CCC3)cc1	COT9 CLADE C	PBMC		<1 µM
Cc1ccc(C)n1-c1ccc(C(=O)O)c(O)c1	94UG103 X4R5 CLADE A	PBMC + MT-2		25.09 µM
CCNC(=O)N1CCc2c(OCCc3cnc4c(c3)C(=O)N(C)c3cccnc3N4CC)ccc(C(=O)O)c2C1		C8166	RT-K103N Y181C	>1 µM
CS(=O)c1ccc(-c2nc(-c3ccc(F)cc3)c(-c3ccncc3)[nH]2)cc1	BaL	PBMC		>1 µM
CC(C)CN(C[C@@H](O)[C@H](Cc1ccccc1)NC(=O)O[C@H]1CO[C@H]2OCC[C@H]21)S(=O)(=O)c1ccc2c(c1)OCO2	MDR/TM	PHA-PBM		0.0032 µM
CCOC(=O)NC(C)(C)C(=O)N[C@@]12CC[C@]3(C)[C@H](CC[C@@H]4[C@@]5(C)CC[C@H](OC(=O)C6C[C@@H](C(=O)O)C6(C)C)C(C)(C)[C@@H]5CC[C@]43C)C1=C(C(C)C)C(=O)C2	NL4-3	MT-4		0.00501–0.01 µM
Clc1cc(CN2CCCNCCNCCCNCC2)cc(Cl)n1	R5 clinical isolate #14	PBMC		2.8 µM
COc1ccc(-c2csc3c(N4CC[C@@H](NC(C)=O)C4)ncnc23)cc1OC		H9		>100 µM
CC(C)=CCOc1cc(NC(=S)c2ccoc2C)ccc1Cl	WEJO	PBMC		0.007 µM
CC1c2nc(C(=O)NCc3ccc(F)cc3)c(O)c(=O)n2CCN1C(=O)C(=O)N(C)C		MT-4		<50 µM
CCN1c2ncc(CCOc3ccc(NS(C)(=O)=O)c4ccccc34)cc2C(=O)N(C)c2ccc(F)nc21	WT	C8166		<0.1 µM
CN1CCn2c(nc(C(=O)NCc3ccc(F)c(Cl)c3)c(O)c2=O)C(N(C)C(=O)C(=O)N(C)C)C1		MT-4		<1 µM
Nc1nc(NC2CC2)c2ncn([C@H]3C=C[C@@H](CO)C3)c2n1	XM-Q151M	PBMC	RT-A62V V75I F77C F116Y Q151M	<3.1 µM
CCN(CCNC(C)=O)c1cc(C)nn2c(-c3ccc(OC)c(OC)c3)c(C)nc12		H9		5 µM
CCN1c2ncc(CCOc3ccc(NC(=O)CC(C)(C)C(=O)O)cc3C)cc2C(=O)N(C)c2cccnc21	IIIB	C8166		<0.01 µM
CCN1c2ncc(CCOc3ccc(C(=O)O)c4c3CCCC4)cc2C(=O)N(C)c2ccc(C)nc21	WT	C8166		<0.1 µM
CCN1c2ncc(CCOc3ccc(-c4ccc(F)c(C(=O)O)c4)cc3)cc2C(=O)N(C)c2cccnc21	IIIB	C8166		<0.01 µM
Cc1noc(C)c1C(=O)NC(C)(C)C(=O)N[C@@]12CC[C@]3(C)[C@H](CC[C@@H]4[C@@]5(C)CC[C@H](OC(=O)C6C[C@@H](C(=O)O)C6(C)C)C(C)(C)[C@@H]5CC[C@]43C)C1=C(C(C)C)C(=O)C2	NL4-3	MT-4		<0.005 µM
CC1(C)c2nc(C(=O)NCc3ccc(F)cc3)c(O)c(=O)n2CCN1CC(=O)O		MT-4		<1 µM
COc1ccc(S(=O)(=O)N(CC(C)C)C[C@@H](O)CCN(CC2CCCC2)S(=O)(=O)C2C(=O)CC(C)(C)SC2=O)cc1	IIIB	CEM		<1 µM
CC(C)C1=C2[C@H]3CC[C@@H]4[C@@]5(C)CC[C@H](OC(=O)C6C[C@@H](C(=O)O)C6(C)C)C(C)(C)[C@@H]5CC[C@@]4(C)[C@]3(C)CC[C@@]2(NC(=O)C(C)(C)NC(=O)Cc2ccc(Cl)cc2)CC1=O	NL4-3	MT-4		<0.005 µM
O=C1Cn2c(nc(C(=O)NCc3ccc(F)cc3)c(O)c2=O)CN1		MT-4		<50 µM
COc1ccc(-c2c(C)nc3c(N4CC[C@@H](NC(=O)OC5CCCCC5)C4)cc(C)nn23)cc1OC		H9		0.3 µM
CCN1c2ncc(CCOc3ccc(C(=O)Nc4ccc(C(=O)O)cc4)cc3C)cc2C(=O)Nc2c(C)ccnc21	IIIB	C8166		0.01–0.05 µM
Cc1[nH]cnc1CS(=O)(=O)N(CC1CCCC1)C[C@@H](O)CN(CCc1ccccc1)C(=O)c1ccccc1	IIIB	CEM		<1 µM
CC(=O)N[C@@H]1CCN(c2cc(C)nn3cc(C)nc23)C1		H9		8 µM
CCN1c2ncc(CCOc3ccc(CCC(=O)O)c4ccccc34)cc2C(=O)Nc2c(C)cc(Cl)nc21	WT	C8166		<0.1 µM
COc1ccc(S(=O)(=O)N(CC(O)CN(Cc2ccccc2)C(=O)OC2COCOC2)CC2CCCC2)cc1	IIIB	CEM		<1 µM
CCN1c2ncc(CCOc3ccc(-c4cc[n+]([O-])cc4)cc3)cc2C(=O)N(C)c2cccnc21		C8166	RT-K103N Y181C	<0.01 µM
Nc1nc(=O)n([C@H]2C=C[C@@H](CO)O2)cc1F	XM-ABC-resistant	PBMC	RT-K65R L74V M184V Y115F	<6.2 µM
CCN1c2ncc(CCOc3ccc(-c4cccc[n+]4[O-])cc3C)cc2C(=O)N(C)c2cccnc21	IIIB	C8166		<0.01 µM
CCN1c2ncc(CCOc3ccc(C(C)CC(=O)O)c4ccccc34)cc2C(=O)N(C)c2cccnc21		C8166	RT-K103N Y181C	<0.1 µM
CC(C)[C@H](NC(=O)OCc1ccccn1)C(=O)N[C@@H](Cc1ccccc1)[C@@H](O)C[C@H](Cc1ccccc1)NC(=O)OCc1cccnc1	NL4-3	MT-4	PR-L10R L63P V82T	<3 µM
CCN1c2ncc(CCOc3ccc(C(=O)NNC)cc3C)cc2C(=O)N(C)c2cccnc21	IIIB	C8166		<0.01 µM
COc1ccc(-c2c(C)nc3c(N4CC[C@@H](NC(=O)Oc5ccc6ccccc6c5)C4)cc(C)nn23)cc1OC		H9		0.3 µM
COC(=O)N1CCn2c(nc(C(=O)NCc3ccc(F)cc3)c(O)c2=O)C1CN(C)C		MT-4		<50 µM
COc1ccc(-c2c(C)nc3c(N4CC[C@H](O)C4)cc(C)nn23)cc1OC		H9		0.5 µM
COc1ccc(S(=O)(=O)N(CC(C)C)C[C@@H](O)CC(=O)N2CCN(C(=O)OCc3ccccc3)C[C@H]2C(=O)NC(C)(C)C)cc1	IIIB	CEM		<1 µM
COc1ccc(-c2c3nc(C)nc(N4CC[C@@H](NC(C)=O)C4)c3nn2C)cc1OC		H9		>100 µM
CC(C)C1=C2[C@H]3CC[C@@H]4[C@@]5(C)CC[C@H](OC(=O)C6C[C@@H](C(=O)O)C6(C)C)C(C)(C)[C@@H]5CC[C@@]4(C)[C@]3(C)CC[C@@]2(NC(=O)C(C)(C)NC(=O)c2cccnc2N2CCOCC2)CC1=O	NL4-3	MT-4	V7A	>0.05 µM

The last 5 rows once more:

{"smiles": "COC(=O)N1CCn2c(nc(C(=O)NCc3ccc(F)cc3)c(O)c2=O)C1CN(C)C", "cells": "MT-4", "result": "<50 µM"}
{"smiles": "COc1ccc(-c2c(C)nc3c(N4CC[C@H](O)C4)cc(C)nn23)cc1OC", "cells": "H9", "result": "0.5 µM"}
{"smiles": "COc1ccc(S(=O)(=O)N(CC(C)C)C[C@@H](O)CC(=O)N2CCN(C(=O)OCc3ccccc3)C[C@H]2C(=O)NC(C)(C)C)cc1", "strain or isolate": "IIIB", "cells": "CEM", "result": "<1 µM"}
{"smiles": "COc1ccc(-c2c3nc(C)nc(N4CC[C@@H](NC(C)=O)C4)c3nn2C)cc1OC", "cells": "H9", "result": ">100 µM"}
{"smiles": "CC(C)C1=C2[C@H]3CC[C@@H]4[C@@]5(C)CC[C@H](OC(=O)C6C[C@@H](C(=O)O)C6(C)C)C(C)(C)[C@@H]5CC[C@@]4(C)[C@]3(C)CC[C@@]2(NC(=O)C(C)(C)NC(=O)c2cccnc2N2CCOCC2)CC1=O", "strain or isolate": "NL4-3", "cells": "MT-4", "changes": "V7A", "result": ">0.05 µM"}